Publication PMC9784969, “SARS-CoV-2 Inhibitors Identified by Phenotypic Analysis of a Collection of Viral RNA-Binding Molecules” (Pharmaceuticals, 2022)
Where “and” joins values, the source holds several entries; their conditions need not be identical. Equal values may be shown once. Read-outs that look alike come from different tables or passages of the source.

Columns and labels:
[1] = system: SARS-CoV-2 USA-WA1/2020; assay type: cell-based; conditions: Vero E6, SI = CC50/EC50
[2] = system: SARS-CoV-2 USA-WA1/2020; assay type: cell-based; conditions: 293T-ACE2, SI = CC50/EC50

## CN(C)CCOc1cc2c(c3ccccc13)-c1ccccc1C2=O [1a]
[1]
  SARS-CoV-2 SI: <0.06

## OC(CNCC1CCCO1)Cn1c2ccc(Br)cc2c2cc(Br)ccc21 (centres unmarked) [1b]
[1]
  SARS-CoV-2 SI: 1.48

## Fc1nc(N2CCNCC2)c(F)c(Sc2ccc(Cl)cc2)c1F [2a]
[1]
  SARS-CoV-2 SI: > 3.21
[2]
  SARS-CoV-2 SI: 8.44

## CCC(=C(c1ccccc1)c1ccc(OCCN(C)C)cc1)c1ccc(O)cc1 [4'OH-tamoxifen]
[1]
  SARS-CoV-2 SI: 3.65

## O=C1c2c(O)ccc(O)c2C(=O)c2c(NCCNCCO)ccc(NCCNCCO)c21 [Mitoxantrone, reference compound]
[1]
  SARS-CoV-2 SI: 0.34

## CCC(CC)COC(=O)[C@H](C)N[P@](=O)(OC[C@H]1O[C@@](C#N)(c2ccc3c(N)ncnn23)[C@H](O)[C@@H]1O)Oc1ccccc1 [Remdesivir, reference compound]
[1]
  SARS-CoV-2 SI: >46.7
[1]; listed as remdesivir
  SARS-CoV-2 SI: > 46.7
[2]
  SARS-CoV-2 SI: >192
[2]; listed as remdesivir
  SARS-CoV-2 SI: > 192

## CCN(CC)CCOc1ccc(C(O)(Cc2ccc(Cl)cc2)c2ccc(C)cc2)cc1 (centres unmarked) [Triparanol, reference compound]
[1]
  SARS-CoV-2 SI: >24.7
[1]; listed as triparanol
  SARS-CoV-2 SI: > 24.7

## CC1CN(C(c2ccccc2)(c2ccccc2)c2ccccc2)CCN1 (centres unmarked) [Trityl-piperazine]
[1]
  SARS-CoV-2 SI: 3.45
[2]
  SARS-CoV-2 SI: >13.6
[2]; listed as trityl-piperazine
  SARS-CoV-2 SI: > 13.6

## CCN(CC)CCCC(C)Nc1ccc2ccccc2n1 (centres unmarked) [qn1]
[1]
  SARS-CoV-2 SI: >2.1

## CC(C)CCN1CCC(CNc2nc3ccccc3c(=O)[nH]2)CC1 [qz2]
[1]
  SARS-CoV-2 SI: > 2.7 and >2.66
[2]
  SARS-CoV-2 SI: > 55

## NCCCc1cn(C(c2ccccc2)(c2ccccc2)c2ccccc2)cn1 [trim]
[1]
  SARS-CoV-2 SI: > 25.7
[2]
  SARS-CoV-2 SI: 71.2

## CN(C)CCOc1ccc(C(=C(CCO)c2ccccc2)c2ccccc2)cc1 [βOH-tamoxifen]
[1]
  SARS-CoV-2 SI: 4.11

## Homochlorcyclizine [reference compound]
[1]
  SARS-CoV-2 SI: >5.57
[1]; listed as homochlorcyclizine
  SARS-CoV-2 SI: > 5.57
